This note sets out measurements from patent US5622933A, “Multiple branch peptide constructions for use against HIV” (priority 1993, dated 1997).

This series relates to 8E5 cells. Briefly: Toxicity in the cell fusion test (MTT assay or trypan blue exclusion). The note with it: 5 × 10^-5 M. In general terms: Tetrazolium assays rely on reduction of a dye to a coloured formazan, in cell work by metabolically active cells.

Take [GPG(R)D AF]8 -MLC: the Toxicity result is “Toxic”.
